A mixed list of measured activities; the numbers were collected in NIAID ChemDB.

Shared fields: tests in culture; organism: Rhinovirus; measure: inhibition

Inhibition is in % at the dose shown (toxicity tests: loss of growth or viability). Blank or dashed fields: not listed here. Rows are shuffled and stem from different studies. Two numbers with a dash give a range or band.

smiles	strain or isolate	cell line	read by	dose	result
Nc1c(S(=O)(=O)O)cc2cc(S(=O)(=O)O)cc(O)c2c1O		Human amnion AV3 cells	cytopathic effect	10 µg/mL	40%
COc1ccc(N2CCN(c3cccc(C)c3)CC2)nn1	17 serotypes			6 µg/mL	53%
N#Cc1cc([N+](=O)[O-])ccc1Oc1ccc(Cl)c(Cl)c1	HANK	VERO	plaque count	0.25 µg/mL	76.3%
CN(C)c1nc(C(F)(F)F)nc2c1ncn2Cc1ccc(Cl)c(NC=O)c1	Serotype 2	M-HELA	plaque count	8 µM	35%
Cc1cccc(N2CCN(c3ccc(Br)nn3)CC2)c1	100 serotypes			0.024 µg/mL	18%
Cc1ccc(Cn2cnc3c(N(C)C)nc(C(F)(F)F)nc32)cc1	Serotype 3	M-HELA	plaque count	2.5 µM	43%
Nc1ccc2cc(S(=O)(=O)O)cc(S(=O)(=O)O)c2c1		Human amnion AV3 cells	cytopathic effect	10 µg/mL	0%
CN(C)c1nc(C(F)(F)F)nc2c1ncn2Cc1ccc([N+](=O)[O-])cc1	Serotype 5	M-HELA	plaque count	10 µM	32%
FC(F)(F)c1cccc(C2CCN(c3ccc(Cl)nn3)C2)c1	100 serotypes			0.156 µg/mL	53%
CN(C)c1nc(C(F)(F)F)nc2c1ncn2Cc1ccccc1	Serotype 2	M-HELA	plaque count	8 µM	33%
COc1cc(-c2ccc(N=Nc3ccc4c(S(=O)(=O)O)cc(S(=O)(=O)O)c(N)c4c3O)c(OC)c2)ccc1N=Nc1ccc2c(S(=O)(=O)O)cc(S(=O)(=O)O)c(N)c2c1O		Human amnion AV3 cells	cytopathic effect	10 µg/mL	0%
CS(=O)(=O)c1ccc2c(c1)CCC(c1ccc(Cl)c(Cl)c1)O2	17 serotypes			1.05 µg/mL	53%
CN(C)c1nc(C(F)(F)F)nc2c1ncn2Cc1ccc(F)cc1	Serotype 2	M-HELA	plaque count	8 µM	27%
O=C(Nc1cc(S(=O)(=O)O)cc2cc(S(=O)(=O)O)cc(O)c12)c1ccccc1		Human embryonic lung cells	cytopathic effect	10 µg/mL	20%
O=C(O)Cc1csc(/N=C2\SC[C@@H]3Cc4ccccc4CN23)n1	Serotype 3	MRC-5	cytopathic effect	3 µg/mL	80–100%

A second listing of 2 rows from above:

smiles,strain or isolate,cell line,read by,dose,result
COc1cc(-c2ccc(N=Nc3ccc4c(S(=O)(=O)O)cc(S(=O)(=O)O)c(N)c4c3O)c(OC)c2)ccc1N=Nc1ccc2c(S(=O)(=O)O)cc(S(=O)(=O)O)c(N)c2c1O,,Human amnion AV3 cells,cytopathic effect,10 µg/mL,0%
CN(C)c1nc(C(F)(F)F)nc2c1ncn2Cc1ccccc1,Serotype 2,M-HELA,plaque count,8 µM,33%